This note sets out measurements from paper PMC6523946.

The subject of data set [1] is P02766. Briefly: cross-linking; huTTR 0.5 ug/uL with or without CAB, pH 4.0, 37 °C, 14 days; 2.5% glutaraldehyde for 4 min at room temperature; boiled in SDS and beta-mercaptoethanol; 10% Tricine SDS-PAGE; densitometry of the tetramer band.
Data set [2] deals with P02766. As to the kind of experiment: Tricine SDS-PAGE at low SDS; huTTR with or without CAB, 7 M urea, 96 h at ~6 °C; 14% Tricine SDS-PAGE with 0.025% SDS in the running buffer and 0.2% SDS in the loading buffer; densitometry of folded huTTR (tetramers, trimers, dimers). The settings on record: other: Tricine SDS-PAGE at low SDS.

With human transthyretin, in data set [1], the “percent of tetramers that remained after acid denaturation, with CAB” value stood at 68.32 ± 0.81% and the “percent of tetramers that remained after acid denaturation, without CAB” value is given as 30.24 ± 0.78%. Further, in data set [2], the “percent of folded huTTR (tetramers, trimers, dimers) after urea denaturation, with CAB” value is on record as 89.65 ± 4.6% and the “percent of folded huTTR (tetramers, trimers, dimers) after urea denaturation, without CAB” value turned out to be 58.87 ± 4.37%.
